Reference: US11820973B2, “Methods and system for interfering with viability of bacteria and related compounds and compositions” (CALIFORNIA INSTITUTE OF TECHNOLOGY, priority 2011, dated 2023)

Tested on: P. aeruginosa PA14 siderophore null strain (ΔpvdAΔpchE)
Experiment: Flow cell biofilm development, siderophore null strain, 1% TSB
Conditions: 10 μM PCA or PYO; for Total biomass: 22° C.
[1] = Day 2, additives to 1% TSB: 1.0 μM Fe(OH)3(s)
[2] = Day 4, additives to 1% TSB: 1.0 μM Fe(OH)3(s)
[3] = Day 6, additives to 1% TSB: 1.0 μM Fe(OH)3(s)

SMILES	Max. biofilm thickness (Day 2, 1.0 μM Fe(OH)3(s)) [μm]	Substratum coverage [1] [%]	Total biomass [1] [μm^2/μm^2]	Max. biofilm thickness (Day 4, 1.0 μM Fe(OH)3(s)) [μm]	Substratum coverage (Day 4, 1.0 μM Fe(OH)3(s)) [%]	Total biomass [2] [μm^2/μm^2]	Max. biofilm thickness (Day 6, 1.0 μM Fe(OH)3(s)) [μm]	Substratum coverage (Day 6, 1.0 μM Fe(OH)3(s)) [%]	Total biomass [3] [μm^2/μm^2]
O=C(O)c1cccc2nc3ccccc3nc12 [PCA, Phenazine-1-carboxylic acid]	32	0.6 ± 0.2	0.05 ± 0.01	34	2.9 ± 1.4	0.19 ± 0.00	66	3.3 ± 2.1	0.21 ± 0.09
Cn1c2cccc(=O)c-2nc2ccccc21 [PYO, Pyocyanin]	34	0.8 ± 0.3	0.09 ± 0.03	42	9.9 ± 2.4	0.83 ± 0.22	94	44.3 ± 5.1	9.54 ± 0.18
